Compound potency records, mixed from different reports. Data source: NIAID ChemDB in PubChem.

All rows: tests in culture; species: Mycobacterium tuberculosis

Blank or dashed fields: not listed here. ECn: concentration that inhibits the pathogen or its effect by n%. Fold resistance: result on the changed form divided by that on wild type. MIC bound: limit read from a one-dose screen. Rows are shuffled and stem from different studies. Two numbers with a dash give a range or band. A number after MIC or MFC names an inhibition level or a share of isolates. Percent inhibition refers to the dose given; in toxicity tests it is the harm to the cells.

SMILES	strain	changes	cells	method	read-out	dose	value
CCC1CN2CCc3cc(OC)c(OC)cc3C2CC1CC1c2cc(OC)c(OC)cc2CCN1C(=O)[C@@H]1CCCN1C(=O)[C@@H]1CCCN1C(=O)CN(CCCl)CCCl	H37Rv	-	-	BACTEC	inhibition	12.5 µg/mL	6%
O=C(NN1C(=O)CS(=O)(=O)C1c1ccc(C(F)(F)F)cc1)c1ccncc1	-	KatG S315T	-	visual reading / absorbance	MIC	-	50 µM
C[C@@H](NC(=O)c1cc([N+](=O)[O-])cc([N+](=O)[O-])c1)c1ccccc1	RifR	Rifampicin-resistant	-	broth dilution / turbidity / visual reading	MIC	-	<0.47 µM
CCc1nc2ccc(C)cc2n1CCCCSc1ccc(Cl)cc1	H37Rv	Rv1339 V90M	-	turbidity / fluorescence	MIC90	-	12 µM
CCC1CN(c2c(F)cc3c(=O)c(C(=O)O)cn(C4CC4)c3c2OC)CCN1	44 (RFP-resistant)	-	-	-	MIC	-	0.5 µg/mL
CC(=O)NCC1CN(c2ccc(C(C)=O)cc2)C(=O)O1	H37Rv	-	-	-	MIC	-	1.25 µg/mL
O=C(/C=C/c1cccc(Cl)c1)c1ccccc1O	H37Rv	-	-	-	EC50	-	<12.5 µg/mL
Clc1ccc(-n2cc(CSC3c4ccccc4-c4ccccc43)nn2)cc1	Specimen 192	-	-	broth dilution	MIC99	-	74.2 µM
C1=C2CCCC/C=C\C=C\CCN3CC[C@@H]4[C@H](CCCCCC/C=C\C=C/CCN(C2)C[C@H]14)C3	H37Rv (ETH-resistant)	-	-	-	MIC	-	3.13 µg/mL
COC(COC(N)=O)C1=C(N2CC2)C(=O)C(C)=C(N2CC2)C1=O	H37Rv	-	-	BACTEC	inhibition	128 µg/mL	100%
c1ccc(OCCCCn2ccnc2)cc1	H37Rv	-	-	turbidity / fluorescence	MIC99	-	>20 µM
CCCCC/C(CC1NC(=S)NC1=O)=N\NC(=O)c1ccncc1	H37Rv	KatG S315R	-	visual reading / absorbance	MIC	-	12.5 µM
O=C1c2ccccc2S(=O)(=O)N1CSC(=S)N1CCCCC1	H37Rv	-	-	-	MIC	-	1.56 µg/mL
CN[C@@H]1[C@H](O[C@H]2[C@H](O[C@H]3[C@H](O)[C@@H](O)[C@H](N=C(N)N)[C@@H](O)[C@@H]3N=C(N)N)O[C@@H](C)[C@]2(O)C=O)O[C@@H](CO)[C@H](O)[C@H]1O	BCG	-	-	-	MBC	-	0.25 µg/mL
Fc1ccc(-n2cc(CNC3c4ccccc4-c4ccccc43)nn2)cc1	Specimen 192	-	-	broth dilution	MIC99	-	281 µM
O=C1c2c(O)cc(O)cc2OC(c2ccc(O)cc2)C1c1c(O[C@@H]2O[C@H](CO)[C@@H](O)[C@H](O)[C@H]2O)cc(O)c2c(=O)cc(-c3ccc(O)cc3)oc12	-	-	-	-	EC50	-	>12.5 µg/mL
C[C@H]1COc2c(N3CCN(C)CC3)c(F)cc3c(=O)c(C(=O)O)cn1c23	106-2	-	-	-	MIC	-	0.5 µg/mL
Cc1c(CN2CCN(C)CC2)cc(-c2ccccc2)n1-c1cccc2ccccc12	103471	-	-	-	MIC	-	>16 µg/mL
COc1ccc(-n2c(N)c(C#N)c(C#N)c2-c2ccco2)cc1	H37Rv	-	-	BACTEC	MIC bound	-	>6.25 µg/mL
CO[C@H]1/C=C/O[C@@]2(C)Oc3c(C)c(O)c4c(O)c(c5c(c4c3C2=O)NC2(CCN(CC(C)C)CC2)N=5)=NC(=O)/C(C)=C\C=C\[C@H](C)[C@H](O)[C@@H](C)[C@@H](O)[C@@H](C)[C@H](OC(C)=O)[C@@H]1C	Strain 6 (RIF-resistant)	-	-	-	MIC	-	5 µg/mL
CC1CCN(C(=S)SCN2C(=O)c3ccccc3S2(=O)=O)CC1	H37Rv	-	-	-	MIC	-	0.78 µg/mL
Cc1c(N)nc([C@H](CC(N)=O)NC[C@@H](N)C(N)=O)nc1C(=O)N[C@H](C(=O)NC(C)C(O)CC(=O)NC(C(=O)NC(OC1OC(C)C(N)C(O)C1O)C(O)c1nc(-c2nc(C(=O)NCCCCN)cs2)cs1)[C@H](C)O)C(OC1OC(CO)C(O)C(O)C1OC1OC(CO)C(O)C(OC(N)=O)C1O)c1cnc[nH]1.Cl.Cl.Cl.Cl	H37Rv	-	-	BACTEC	MIC bound	-	≤12.8 µg/mL
NNC(=O)c1ccncc1	-	-	-	-	MIC	-	0.16 µg/mL
O=c1cc(-c2ccc(O)cc2-c2c(O)cc3oc(-c4ccc(O)cc4)cc(=O)c3c2O)oc2cc(O)cc(O)c12	H37Rv	-	-	-	inhibition	12.5 µg/mL	1%
Cc1cn([C@H]2C=C[C@@H](COC(=O)CN3CCN(c4cc5c(cc4F)c(=O)c(C(=O)O)cn5C4CC4)CC3)O2)c(=O)[nH]c1=O	H37Rv	-	-	-	EC50	-	<6.25 µg/mL
CO[C@H]1/C=C/O[C@@]2(C)Oc3c(C)c(O)c4c(O)c(c(/C=N/N5CCN(C)CC5)c(O)c4c3C2=O)NC(=O)/C(C)=C\C=C\[C@H](C)[C@H](O)[C@@H](C)[C@@H](O)[C@@H](C)[C@H](OC(C)=O)[C@@H]1C	SIT37	-	-	resazurin	MIC	-	3 µg/mL
O=C(/C=C/c1ccc(Br)cc1)c1ccccc1O	-	-	-	-	EC50	-	<12.5 µg/mL
O=C1c2ccccc2S(=O)(=O)N1CSC(=S)N1CCOCC1	H37Rv	-	-	-	MIC	-	1.56 µg/mL
CC1COc2c(N3CCN(C)CC3)c(F)cc3c(=O)c(C(=O)O)cn1c23	22 isolates	-	-	-	MIC90	-	1 µg/mL
Cc1ccc(N2C(=O)CSC2=S)cc1Br	H37Rv	-	-	BACTEC	MIC bound	-	>12.5 µg/mL
CC(C)N=c1cc2n(-c3ccc(Cl)cc3)c3ccccc3nc-2cc1Nc1ccc(Cl)cc1	BCG	-	-	-	MBC	-	0.25 µg/mL
NNC(=O)c1ccncc1	-	KatG S315T	-	visual reading / absorbance	MIC	-	1.6 µM
c1ccc(-n2cc(CSC3c4ccccc4-c4ccccc43)nn2)cc1	Specimen 192	-	-	broth dilution	MIC99	-	141 µM
Cc1cc(=O)oc2cc(OC(=O)CNC3N=C(c4ccc(F)cc4)C=C(c4ccccc4)S3)c([N+](=O)[O-])cc12	H37Rv	-	-	broth dilution	MIC99	-	100 µg/mL
O=Nc1c(O)[nH]c2ccc(Cl)c(Cl)c12	-	-	-	resazurin	MIC bound	-	>6.25 µg/mL
Cc1c(N2C[C@@H](N)C3(CC3)C2)c(F)cc2c(=O)c(C(=O)O)cn([C@@H]3C[C@@H]3F)c12	71 (RFP-resistant)	-	-	-	MIC	-	0.2 µg/mL
COc1ccccc1NC(=O)CC(=O)N1N=C(C)C(N=Nc2cccc(C(=O)O)c2)C1=O	H37Rv	-	-	BACTEC	MIC bound	-	>12.8 µg/mL
Nc1ccc(C(=O)/C=C/c2ccccc2)cc1	H37Rv	-	-	-	inhibition	12.5 µg/mL	5%
O=C(c1ccccc1)N1C(=S)N(c2ccc([N+](=O)[O-])cc2)C(=Nc2ccccc2)C1=Nc1ccccc1	H37Rv	-	-	BACTEC	inhibition	12.5 µg/mL	0%
CCn1cc(C(=O)O)c(=O)c2cc(F)c(N3CCNCC3)cc21	10 isolates	-	-	-	MIC	-	15.6–31.2 µg/mL
Cc1cc(=O)oc2cc(OC(=O)CNC3N=C(c4ccc(F)cc4)C=C(c4ccc(Cl)cc4)S3)c([N+](=O)[O-])cc12	H37Rv	-	-	broth dilution	MIC98	-	500 µg/mL
CCc1nc2ccc(C)cc2n1CCCCNc1ccccc1	H37Rv	WT	-	turbidity / fluorescence	MIC90	-	0.21 µM
COc1ccc2c(c1)Sc1c(Cl)c3c(c(Cl)c1=N2)Sc1cc(OC)ccc1N=3	H37Rv	-	-	BACTEC	inhibition	12.5 µg/mL	-5%
CC[C@H]1OC(=O)[C@H](C)[C@@H](O[C@H]2C[C@@](C)(OC)[C@@H](O)[C@H](C)O2)[C@H](C)[C@@H](O[C@@H]2O[C@H](C)C[C@H](N(C)C)[C@H]2O)[C@](C)(OC)C[C@@H](C)C(=O)[C@H](C)[C@@H](O)[C@]1(C)O	BCG	-	-	-	MIC	-	0.25 µg/mL
Cc1c(CN2CCSCC2)cc(-c2ccccc2)n1-c1ccccc1Cl	103471	-	-	-	MIC	-	16 µg/mL
CN=C(NN(C)C)c1ccc(NC(=O)c2ccc(C(=O)Nc3ccc(C(=NC)NN(C)C)cc3)cc2)cc1	H37Rv	-	VERO	BACTEC	MIC	-	12.5 µg/mL
Cc1cc(=O)oc2cc(OC(=O)CNC3N=C(c4ccc(F)cc4)C=C(c4cccc(Oc5ccccc5)c4)S3)c([N+](=O)[O-])cc12	H37Rv	-	-	broth dilution	MIC98	-	>1000 µg/mL
N#CC(N=Nc1ccc2ccccc2c1)C(N)=O	H37Rv	-	-	BACTEC	MIC bound	-	>12.5 µg/mL
O=[N+]([O-])c1ccccc1-n1cc(CNC2c3ccccc3-c3ccccc32)nn1	Specimen 192	-	-	broth dilution	MIC99	-	>261 µM
CCOC(=O)c1nnc(SC)nc1SC	H37Rv	-	-	BACTEC	MIC bound	-	>12.5 µg/mL
CCc1nc2ccccc2n1CCCCOc1ccccc1Cl	H37Rv	QcrB M342T	-	turbidity / fluorescence	fold resistance	-	11
Cc1c(CN2CCSCC2)cc(-c2ccccc2)n1-c1ccc(F)cc1	103471	-	-	-	MIC	-	0.4 µg/mL
O=C(NNC(=O)C12CC3CC(CC(C3)C1)C2)C12CC3CC(CC(C3)C1)C2	H37Rv	-	-	BACTEC	inhibition	12.5 µg/mL	-19%
Cc1c(N2CC3CCCNC3C2)c(F)cc2c(=O)c(C(=O)O)cn([C@@H]3C[C@@H]3F)c12	44 (RFP-resistant)	-	-	-	MIC	-	0.006 µg/mL
Cc1cc(=O)oc2cc(OC(=O)CNC3N=C(c4ccc(F)cc4)C=C(c4cccc(Br)c4)S3)c([N+](=O)[O-])cc12	H37Rv	-	-	broth dilution	MIC99	-	500 µg/mL
CCc1nc2ccc(C)cc2n1CCCSc1ccc(OC)cc1	H37Rv	QcrB M342T	-	turbidity / fluorescence	fold resistance	-	21
NCC[C@H](O)C(=O)N[C@@H]1C[C@H](N)[C@@H](O[C@H]2O[C@H](CN)[C@@H](O)[C@H](O)[C@H]2O)[C@H](O)[C@H]1O[C@H]1O[C@H](CO)[C@@H](O)[C@H](N)[C@H]1O	BCG	-	-	-	MBC	-	0.25 µg/mL
Cc1cn([C@H]2C=C[C@@H](COC(=O)CNNC(=O)c3ccncc3)O2)c(=O)[nH]c1=O	H37Rv	-	-	-	EC50	-	<6.25 µg/mL
Cc1c(CN2CCSCC2)cc(-c2ccccc2)n1-c1ccccc1F	103471	-	-	-	MIC	-	8 µg/mL
COc1ccc(N2C(=O)C(=O)N(c3ccc(N=Nc4ccccc4)cc3)C2=S)cc1	H37Rv	-	-	BACTEC	MIC bound	-	>12.5 µg/mL
CC1COc2c(N3CCN(C)CC3)c(F)cc3c(=O)c(C(=O)O)cn1c23	H37Rv	-	-	-	MIC	-	0.5 µg/mL
COc1ccc(N=C2C(=Nc3ccc(OC)cc3)N(c3ccc(N(C)C)cc3)C(=S)N2c2ccc(OC)cc2)cc1	H37Rv	-	-	BACTEC	inhibition	12.5 µg/mL	0%
O=C(Nc1ccc(F)cc1)c1cc([N+](=O)[O-])cc([N+](=O)[O-])c1	H37Rv (ATCC 27294)	-	-	broth dilution / turbidity / visual reading	MIC	-	>3.28 µM
C=C1C(=O)C2=CC1CCC(=O)C1(C)CCC(OC(C)=O)C(C)(C)C1CC2O	H37Rv	-	-	BACTEC	inhibition	12.5 µg/mL	37%
Cc1c(CN2CCN(C)CC2)cc(-c2cccc3ccccc23)n1-c1ccccc1	103471	-	-	-	MIC	-	>16 µg/mL
Cc1ccc(C2=CC(c3ccc(F)cc3)=NC(NCC(=O)Oc3cc4oc(=O)cc(C)c4cc3[N+](=O)[O-])S2)cc1	H37Rv	-	-	broth dilution	MIC99	-	500 µg/mL
CN(C)N1C(=O)C2C(C1=O)[C@H]1C=C[C@@H]2O1	H37Rv	-	-	BACTEC	MIC bound	-	>12.5 µg/mL
CCCOC(=S)SCN1C(=O)c2ccccc2S1(=O)=O	H37Rv	-	-	-	inhibition	6.25 µg/mL	99%
COc1ccc(C2Oc3ccc(Br)cc3C(=O)C2O)cc1	H37Rv	-	-	-	inhibition	12.5 µg/mL	24%
O=S1(=O)OC(c2ccc(O)c(O)c2)(c2ccc(O)c(O)c2)c2ccccc21	H37Rv	-	-	BACTEC	MIC bound	-	>6.25 µg/mL
CCc1nc2ccc(C)cc2n1CCCNc1ccc(C)cc1C	H37Rv	WT	-	turbidity / fluorescence	MIC90	-	1 µM
CC(C)(C)C(=O)N/N=C/c1ccc([N+](=O)[O-])s1	H37Rv	-	-	BACTEC	MIC bound	-	≤12.5 µg/mL
Cc1ccc(-n2cc(CS(=O)(=O)C3c4ccccc4-c4ccccc43)nn2)cc1C	H37Rv	-	-	broth dilution	MIC99	-	120 µM
O=C1NNC=Nc2nc3c(cc21)CCCC3	H37Rv	-	-	BACTEC	MIC bound	-	>12.5 µg/mL
Cc1c(CN2CCSCC2)cc(-c2ccccc2F)n1-c1ccccc1	103471	-	-	-	MIC	-	4 µg/mL